Anti-infective test results gathered from many reports (values: NIAID ChemDB through PubChem).

Shared fields: growth or infection tests; agent: HIV-1; endpoint: EC50

Two numbers with a dash give a range or band. An empty or dashed field is not shown. Rows are shuffled and stem from different studies. ECn: concentration that inhibits the pathogen or its effect by n%.

compound,strain or isolate,changes,cells,read by,result
[2H]C(CNCC[C@@]12CC[C@]3(C)[C@H](CC[C@@H]4[C@@]5(C)CC[C@H](OC(=O)[C@H]6C[C@@H](C(=O)O)C6(C)C)C(C)(C)[C@@H]5CC[C@]43C)C1=C(C(C)C)C(=O)C2)(NC(=O)c1ccc(Cl)cc1)C(C)O,92HT599,,MT-2,p24 / ELISA,<1 µM
CC1CC(C)CN(S(=O)(=O)c2ccccc2[N+](=O)[O-])C1,F-93BR20,,HeLa,GFP / fluorescence,0.1 µM
CC(C)C1=C2[C@H]3CC[C@@H]4[C@@]5(C)CC[C@H](OC(=O)[C@H]6C[C@@H](C(=O)O)C6(C)C)C(C)(C)[C@@H]5CC[C@@]4(C)[C@]3(C)CC[C@@]2(CCNCc2ccc(N3CCS(=O)(=O)CC3)cc2)CC1=O,92HT599,,MT-2,p24 / ELISA,<1 µM
Cc1cc(Cl)cc(C(=O)c2cc(Cl)ccc2OCC(=O)Nc2ccc(S(N)(=O)=O)cc2C)c1,HXB2,RT-V106A Y181C,HeLa + HELA CD4+,β-galactosidase,0.101–1 µM
O=C(C(=O)N1CCN(C(=O)c2ccoc2)CC1)c1c[nH]c2cccc(F)c12,,,HeLa + HELA CD4+/CCR5,luciferase,<10 µM
CC(C)=CCOc1cc(NC(=S)c2ccsc2C)ccc1Cl,4xAZT,,CEM + CEM-SS,cytopathic effect / XTT,0.006 µM
COc1ccc(OC)c2c(C(=O)C(=O)N3CCN(C(=O)c4ccc(Br)o4)C[C@H]3C)c[nH]c12,,,HeLa + HELA CD4+/CCR5,luciferase,<10 µM
CC(C)C1=C2[C@H]3CC[C@@H]4[C@@]5(C)CC[C@H](OC(=O)[C@H]6C[C@@H](C(=O)O)C6(C)C)C(C)(C)[C@@H]5CC[C@@]4(C)[C@]3(C)CC[C@@]2([C@@H](O)CNC(=O)C2CCCC2)CC1=O,92HT599,,MT-2,p24 / ELISA,<1 µM
CCC(=O)c1ccc(F)c([C@@H]2C[C@@H]2NC(=O)Nc2ccc(C#N)cn2)c1O,LAI,NNRTI-resistant (RT L100V),TZM-bl,β-galactosidase / luminescence,0.00506 µM
CC(C)=CCOc1cc(NC(=S)c2ccoc2C)ccc1Cl,NL4-3 (RT K101E),RT-K101E,CEM + CEM-SS,cytopathic effect / XTT,0.04 µM
C[C@@H]1CN(C(=O)c2ccccc2)CCN1C(=O)C(=O)c1c[nH]c2cccc(Br)c12,,,HeLa + HELA CD4+/CCR5,luciferase,>10 µM
CC(C)C1=C2[C@H]3CC[C@@H]4[C@@]5(C)CC[C@H](OC(=O)[C@H]6C[C@@H](C(=O)O)C6(C)C)C(C)(C)[C@@H]5CC[C@@]4(C)[C@]3(C)CC[C@@]2(CCNCc2ccc(F)cc2)CC1=O,92HT599,,MT-2,p24 / ELISA,<1 µM
Cc1nc(C(=O)N2CCN(C(=O)C(=O)c3c[nH]c4cccc(F)c34)CC2)cs1,,,HeLa + HELA CD4+/CCR5,luciferase,<10 µM
Cc1cc(S(N)(=O)=O)ccc1NC(=O)COc1ccc(Cl)cc1C(=O)c1cccc(C#N)c1,HXB2,RT-K103N L100I,HeLa + HELA CD4+,β-galactosidase,<0.01 µM
CC(C)C1=C2[C@H]3CC[C@@H]4[C@@]5(C)CC[C@H](OC(=O)[C@H]6C[C@@H](C(=O)O)C6(C)C)C(C)(C)[C@@H]5CC[C@@]4(C)[C@]3(C)CC[C@@]2([C@@H](O)CNC(=O)C(F)(CCCN)NC(=O)c2ccc(Cl)cc2)CC1=O,92HT599,,MT-2,p24 / ELISA,<1 µM
Cc1cc(N2CCS(=O)CC2)ccc1NC(=O)COc1ccc(Cl)cc1C(=O)c1cccs1,HXB2 (RT-K103N Y181C) Recombinant,RT-K103N Y181C,HeLa + HELA CD4+,β-galactosidase,1–3 µM
CC(C)=CCOc1cc(NC(=S)c2ccsc2C)ccc1Cl,NL4-3,RT-V106I,CEM + CEM-SS,p24,0.08 µM
O=C(C(=O)N1CCN(C(=O)c2ccco2)CC1)c1c[nH]c2cccc(F)c12,,,HeLa + HELA CD4+/CCR5,luciferase,<10 µM
Cc1cc(OCCCS(N)(=O)=O)ccc1NC(=O)COc1ccc(Cl)cc1C(=O)c1cc(F)cc(C(F)(F)F)c1,HXB2,RT-K101E,HeLa + HELA CD4+,β-galactosidase,<0.01 µM
O=C(O)c1cc(-n2cccc2)ccc1Cl,RU570 R5 CLADE G,,PBMC + MT-2,p24,39.68 µM
Cc1cc(S(N)(=O)=O)ccc1NC(=O)COc1ccc(Cl)cc1C(=O)c1cc(F)cc(F)c1,HXB2,RT-K103N,HeLa + HELA CD4+,β-galactosidase,<0.01 µM
CC(C)C1=C2[C@H]3CC[C@@H]4[C@@]5(C)CC[C@H](OC(=O)[C@H]6C[C@@H](C(=O)O)C6(C)C)C(C)(C)[C@@H]5CC[C@@]4(C)[C@]3(C)CC[C@@]2([C@@H](O)CNCC(C)(C)NC(=O)c2ccc(Cl)cc2OCCN2CCCCC2)CC1=O,92HT599,,MT-2,p24 / ELISA,<1 µM
CCCc1cc(=O)oc2c3c(c4c(c12)OC(C)(C)CC4)O[C@@H](C)[C@H](C)[C@@H]3O,E BPTU-resistant (RT Y181C),RT-Y181C,CEM + CEM-SS,XTT,<0.06 µM
O=C(C(=O)N1CCN(C(=O)c2ccccc2)CC1)c1c[nH]c2cc(F)cc(F)c12,,,HeLa + HELA CD4+/CCR5,luciferase,<10 µM
CCc1cc(C#N)cc(C(=O)c2cc(Cl)ccc2OCC(=O)Nc2ccc(S(N)(=O)=O)cc2C)c1,HXB2,RT-P236L,HeLa + HELA CD4+,β-galactosidase,<0.01 µM
O=C(C(=O)N1CCN(C(=O)c2c(S)cccc2Cl)CC1)c1c[nH]c2cccc(F)c12,,,HeLa + HELA CD4+/CCR5,luciferase,<10 µM
CC(C)C1=C2[C@H]3CC[C@@H]4[C@@]5(C)CC[C@H](OC(=O)[C@H]6C[C@@H](C(=O)O)C6(C)C)C(C)(C)[C@@H]5CC[C@@]4(C)[C@]3(C)CC[C@@]2(CCNCC2CCC2)CC1=O,92HT599,,MT-2,p24 / ELISA,<1 µM
Cc1cc(S(N)(=O)=O)ccc1NC(=O)COc1ccc(Cl)cc1C(=O)c1cc(F)cc(C(F)(F)F)c1,HXB2,RT-K103N P225H,HeLa + HELA CD4+,β-galactosidase,<0.01 µM
CC(C)C1=C2[C@H]3CC[C@@H]4[C@@]5(C)CC[C@H](OC(=O)[C@H]6C[C@@H](C(=O)O)C6(C)C)C(C)(C)[C@@H]5CC[C@@]4(C)[C@]3(C)CC[C@@]2([C@@H](O)CNCC(C)(C)NC(=O)c2ccc(N3CCN(C)CC3)cc2)CC1=O,92HT599,,MT-2,p24 / ELISA,<1 µM
N#CC1=CC2Nc3ccccc3C2N(c2ccc([N+](=O)[O-])cc2)C1=O,7324-1,,HeLa,GFP / fluorescence,0.01 µM
CC(C)C1=C2[C@H]3CC[C@@H]4[C@@]5(C)CC[C@H](OC(=O)[C@H]6C[C@@H](C(=O)O)C6(C)C)C(C)(C)[C@@H]5CC[C@@]4(C)[C@]3(C)CC[C@@]2(CCNCc2ncc[nH]2)CC1=O,92HT599,,MT-2,p24 / ELISA,<1 µM
O=Cc1ccc(F)c2c(C(=O)C(=O)N3CCN(C(=O)c4ccccc4)CC3)c[nH]c12,,,HeLa + HELA CD4+/CCR5,luciferase,<10 µM

For reference, 4 entries again:

| compound | strain or isolate | changes | cells | read by | result |
|---|---|---|---|---|---|
| O=C(O)c1cc(-n2cccc2)ccc1Cl | RU570 R5 CLADE G |  | PBMC + MT-2 | p24 | 39.68 µM |
| O=C(C(=O)N1CCN(C(=O)c2ccccc2)CC1)c1c[nH]c2cc(F)cc(F)c12 |  |  | HeLa + HELA CD4+/CCR5 | luciferase | <10 µM |
| CC(C)C1=C2[C@H]3CC[C@@H]4[C@@]5(C)CC[C@H](OC(=O)[C@H]6C[C@@H](C(=O)O)C6(C)C)C(C)(C)[C@@H]5CC[C@@]4(C)[C@]3(C)CC[C@@]2(CCNCC2CCC2)CC1=O | 92HT599 |  | MT-2 | p24 / ELISA | <1 µM |
| COc1ccc(OC)c2c(C(=O)C(=O)N3CCN(C(=O)c4ccc(Br)o4)C[C@H]3C)c[nH]c12 |  |  | HeLa + HELA CD4+/CCR5 | luciferase | <10 µM |